These results are taken from patent US6846933B1, “Antimycobacterial compounds and method for making the same” (priority 2000, dated 2005).

Series [1] concerns VERO cells. Put plainly: Cytotoxicity in VERO cells (MTT, 72 hours). The following applies: IC50 (VERO cells):MIC ratio. It is filed as cell-based.
Series [2] relates to M. tuberculosis Erdman (ATCC 35801) in monolayers of mouse bone marrow macrophages. In words: Killing of M. tuberculosis Erdman in mouse bone marrow macrophages. It is filed as cell-based, Mycobacterium tuberculosis. The following applies: ratio EC90 to MIC.
Series [3] deals with M. tuberculosis TAC-R. It counts as cell-based, Mycobacterium tuberculosis.
The test system of series [4] is M. tuberculosis EMB-R. It is filed as cell-based, Mycobacterium tuberculosis. The note with it: ratio MIC EMB-R to MIC.
Series [5] concerns M. tuberculosis ETA-R. Put plainly: MIC vs ETA-R M. tuberculosis. It is filed as cell-based, Mycobacterium tuberculosis. The following applies: ratio MIC ETA-R to MIC.

Consider `CCC/C(CC(=O)OCC)=N/NC(=O)c1ccncc1` [Sample ID 101702], for which, in series [1], the SI is given as greater than 2631.6.
In the case of `CCOC(=O)C/C(C)=N/NC(=O)c1ccncc1` [Sample ID 101743], in series [1], the SI is listed as 50000. Moreover, the “EC 90:MIC” value in series [2] is listed as 0.05.
As to `O=C(N/N=C/c1cccc(/C=N/NC(=O)c2ccncc2)c1)c1ccncc1` [Sample ID 102043], in series [1], the SI is given as 126. In series [2], the “EC 90:MIC” value worked out at 0.8.
Turning to `CC(C)=CCCC(C)C/C=N/NC(=O)c1ccncc1` (centres unmarked) [Sample ID 102044], the SI in series [1] was determined as 1000. In series [2], the “EC 90:MIC” value amounted to 0.1. Further, in series [3], the “TAC-R:MIC” value was 15.65.
Take `CCCCOc1ccc(/C=N/NC(=O)c2ccncc2)cc1` [Sample ID 102090]: in series [1], the SI was 2000. In addition, the “EC 90:MIC” value in series [2] was 1.8.
On the same counts, the results for `CCCCCCCCCCCC/C=N/NC(=O)c1ccncc1` [Sample ID 102094] are 374 and 0.4.
On the same counts, the results for `O=C(NN=C1CCCCC1)c1ccncc1` [Sample ID 102674] are 40000 and 2.67.
For the molecule `CC(C)=NNC(=O)c1ccncc1` [Sample ID 102752], in series [1], the SI is reported as 10000. The “EC 90:MIC” value in series [2] is 0.3.
On the same counts, the results for `O=C(N/N=C/c1ccccc1)c1ccncc1` [Sample ID 102787] are 2000 and 0.4.
The matching figures for `COc1cc(/C=N/NC(=O)c2ccncc2)ccc1O` [Sample ID 102858]: 4000 and 0.15.
For `COc1ccc(/C=N/NC(=O)c2ccncc2)cc1` [Sample ID 102866], the SI in series [1] was determined as 1520. In addition, the “EC 90:MIC” value in series [2] is recorded as 0.4. In series [3], the “TAC-R:MIC” value is reported as greater than 32.5.
`COc1ccccc1/C=N/NC(=O)c1ccncc1` [Sample ID 102871]: the SI in series [1] was 500. For the same molecule, the “EC 90:MIC” value in series [2] turned out to be 0.3.
On the same counts, the results for `CC(/C=N/NC(=O)c1ccncc1)=C\c1ccccc1` [Sample ID 103062] are 250 and 0.15.
On the same counts, the results for `O=C(N/N=C/c1ccc(F)cc1)c1ccncc1` [Sample ID 103167] are 1000 and 0.2.
For `O=C(NN=C1CCCC1)c1ccncc1` [Sample ID 111298], the “EC 90:MIC” value in series [2] was 1.2. Moreover, the “EMB-R:MIC” value in series [4] is given as 2.
Turning to `CC1C/C(=N/NC(=O)c2ccncc2)CC(C)(C)C1` (centres unmarked) [Sample ID 114353], the SI in series [1] is reported as greater than 2000.
`O=C(N/N=C/c1cc(Cl)ccc1Cl)c1ccncc1` [Sample ID 117150]: the “TAC-R:MIC” value in series [3] is given as greater than 32.05.
In the case of `O=C(N/N=C/c1c(F)cccc1F)c1ccncc1` [Sample ID 122489], the SI in series [1] is reported as greater than 625.
In the case of `O=C(N/N=C/c1ccc(Cl)c(Cl)c1)c1ccncc1` [Sample ID 122490], the SI in series [1] is listed as greater than 50.
Turning to `CCOC(=O)/C(CCc1ccccc1)=N\NC(=O)c1ccncc1` [Sample ID 132358], the SI in series [1] is reported as greater than 1250. In addition, in series [4], the “EMB-R:MIC” value is listed as greater than 32. Besides, the “ETA-R:MIC” value in series [5] worked out at 0.08.
On the same counts, the results for `O=C(N/N=C/C=C(c1ccccc1)c1ccccc1)c1ccncc1` [Sample ID 132532] are 68, greater than 32 and 0.16.
